Pooled drug test results. Numbers come from NIAID ChemDB, via PubChem.

Shared fields: cytotoxicity tests; cells: 2.2.15; endpoint: CC50

CCn is the concentration with n% toxicity to the cells.

{"SMILES": "Nc1ncnc2c1ncn2O[C@H]1CS[C@@H](CO)O1", "value": ">100 µg/mL"}
{"SMILES": "CCC(c1n[nH]c(=S)o1)S(=O)(=O)c1ccccc1", "value": ">7.5 µM"}
{"SMILES": "CCOC(=O)c1c(CS(=O)c2ccccc2)n(C)c2cc(Br)c(O)c(Cn3ccnc3C)c12", "value": "99.21 µg/mL"}
{"SMILES": "Cc1cn([C@H]2O[C@@H](CO)[C@H](O)[C@H]2F)c(=O)[nH]c1=O", "value": ">200 µM"}
{"SMILES": "CCOC(=O)c1c(CS(=O)c2ccc(F)c(F)c2)n(C2CC2)c2cc(Br)c(O)c(CN3CCN(C)CC3)c12", "value": "34.35 µg/mL"}
{"SMILES": "O=S(=O)(Cc1nnc(SCCN2CCN(c3ccccn3)CC2)o1)c1ccccc1", "value": ">40 µM"}
{"SMILES": "Nc1nc(=O)n([C@H]2O[C@@H](CO)[C@H](O)[C@H]2F)cc1F", "value": ">200 µM"}
{"SMILES": "O=c1[nH]cnc2c1ncn2O[C@@H]1CS[C@@H](CO)O1", "value": ">100 µg/mL"}
{"SMILES": "O=C1NNC(=O)c2c(ncn2[C@@H]2O[C@H](CO)[C@@H](O)[C@H]2O)N1", "value": "1844 µM"}
{"SMILES": "CCOC(=O)c1c(CS(=O)c2ccc(F)cc2)n(C2CC2)c2cc(Br)c(O)c(Cn3ccnc3)c12", "value": "55.56 µg/mL"}
{"SMILES": "Nc1ccn([C@H]2O[C@@H](CO)[C@H](O)[C@H]2F)c(=O)n1", "value": ">200 µM"}
{"SMILES": "CCOC(=O)c1c(CSc2ccccc2-[n+]2ccccc2)n(C)c2cc(Br)c(O)c(CSCCN)c12", "value": "8 µg/mL"}
{"SMILES": "C#Cc1cn([C@H]2O[C@@H](CO)[C@H](O)[C@H]2F)c(=O)[nH]c1=O", "value": ">200 µM"}
{"SMILES": "CCCCSc1nnc(C(C)S(=O)(=O)c2ccccc2)o1", "value": ">1.5 µM"}
{"SMILES": "COc1ncnc2c1ncn2O[C@@H]1CO[C@@H](CO)O1", "value": ">100 µg/mL"}
{"SMILES": "CCOC(=O)c1c(CS(=O)c2ccc(F)cc2)n(C)c2cc(Br)c(O)c(CN3CCCC3)c12", "value": "347 µg/mL"}
{"SMILES": "Nc1nc2c(ncn2OC2COC(CO)O2)c(=O)[nH]1", "value": ">100 µg/mL"}
{"SMILES": "O=c1[nH]c(=O)n([C@H]2O[C@@H](CO)[C@H](O)[C@H]2F)cc1Cl", "value": ">200 µM"}
{"SMILES": "Nc1nc2c(ncn2O[C@H]2CO[C@@H](CO)O2)c(=O)[nH]1", "value": ">100 µg/mL"}
{"SMILES": "O=C(CSc1nnc(CS(=O)(=O)c2ccccc2)o1)c1ccc(Cl)cc1", "value": ">1.5 µM"}
{"SMILES": "Nc1ncnc2c1ncn2O[C@@H]1CO[C@@H](CO)O1", "value": ">100 µg/mL"}
{"SMILES": "Cc1cccc(C(=O)Nc2ncc(Cl)s2)c1O", "value": ">100 µM"}

The last 2 rows once more:

SMILES | value
Nc1ncnc2c1ncn2O[C@@H]1CO[C@@H](CO)O1 | >100 µg/mL
Cc1cccc(C(=O)Nc2ncc(Cl)s2)c1O | >100 µM

Conditions beyond the fields shown may differ between rows.